In publication PMC9744275, “Pterin-based small molecule inhibitor capable of binding to the secondary pocket in the active site of ricin-toxin A chain” (2022):

Key:
[1] = test system: RTA; conditions: cited from earlier work
[2] = biological target: Ricin toxin A-chain (RTA) (Ricinus communis, UniProt P02879)

For `Nc1nc2nc(C(=O)NCC(=O)NC(Cc3ccccc3)C(=O)O)cnc2c(=O)[nH]1` (stereo not shown), the IC50 [1] is listed as 20 µM and the IC50 [2] is listed as 30.8 µM.
For `Nc1nc2nc(C(=O)NCC(=O)NCC(=O)O)cnc2c(=O)[nH]1`, the IC50 [1] is listed as 400 µM.
For `Nc1nc2nc(C(=O)NCC(=O)NC(Cc3ccccc3)C(=O)NC(Cc3ccccc3)C(=O)O)cnc2c(=O)[nH]1` (stereo not shown), the IC50 [1] is listed as 15 µM.
